According to PMC7944940 (Dalton transactions (Cambridge, England : 2003), 2021):

Target: PAN endonuclease (Influenza A virus, UniProt C3W5S0)
Assay: FRET-based enzymatic assay of PAN endonuclease inhibition
Format: biochemical
Settings: read-out: IC50 (dark)

Question: How did the IC50 turn out when “[Ru(2,2´-bipyridine)2(pyridine)2][Cl]2 [Compound 9]” was run?
Answer: > 100 µM
